Measurements reported in PubChem BioAssay AID624099 (ICCB-Longwood, 2012).
This is one part, drawn at random, of about 21,000 reagents. 497 of all reagents (2.4%) count as active. 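Higher z means weaker E2 silencing; only reporter increases were scored, and knock-downs that hurt cell survival may mask genuine repressor factors.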 No sequences are given here.

- Test: 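Human genes that papillomavirus E2 requires to repress the HPV18 LCR promoter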 (primary screen)
- System: human C33A cervical carcinoma cells (HPV-negative) stably expressing BPV1 E2 and an HPV18 LCR luciferase reporter
- Reagent: siRNA pool against human genes, 40 nM
- Timing: 72 h
- Measured: 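HPV18 LCR reporter light per well, converted to plate-wise z-scores that exclude control wells, and averaged over triplicate plates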
- Scale: mean z-score and z-score: higher = stronger reporter signal, weaker E2 silencing
- Rule for the call: 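Hit if mean z-score reaches 2 and two or more of three replicate z-scores also reach 2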

target gene	mean z-score	z-score, replicate A	z-score, replicate B	z-score, replicate C	call
LOC283604 (retired record)	0.54	0.29	0.94	0.38	inactive
MRM3 (mitochondrial rRNA methyltransferase 3)	-1.04	-0.8	-0.93	-1.37	inactive
HMGB4 (high mobility group box 4)	1.67	1.68	1.35	1.96	inactive
PPID (peptidylprolyl isomerase D)	0.32	0.4	0.33	0.22	inactive
H3P44 (H3 histone pseudogene 44)	-0.21	-0.05	-0.29	-0.28	inactive
RPUSD1 (RNA pseudouridine synthase domain containing 1)	-1.18	-1.29	-1.29	-0.98	inactive
TCEA2 (transcription elongation factor A2)	-1.24	-1.43	-1.36	-0.93	inactive
DPH6 (diphthamine biosynthesis 6)	-0.76	-0.84	-0.53	-0.9	inactive
HMGB1P10 (high mobility group box 1 pseudogene 10)	0.65	0.85	0.42	0.67	inactive
INPP5E (inositol polyphosphate-5-phosphatase E)	-0.15	0.15	-0.16	-0.43	inactive
CIMIP5 (ciliary microtubule inner protein 5)	-0.24	-0.11	-0.21	-0.41	inactive
CARNS1 (carnosine synthase 1)	-1.47	-0.73	-1.2	-2.47	inactive
NDST3 (N-deacetylase and N-sulfotransferase 3)	-0.15	-0.06	-0.03	-0.36	inactive
CALY (calcyon neuron specific vesicular protein)	0.95	0.63	1.07	1.13	inactive
RBIS (ribosomal biogenesis factor)	-0.04	-0.45	0.17	0.16	inactive
RPS6KA4 (ribosomal protein S6 kinase A4)	0.15	-0.01	0.51	-0.05	inactive
IFRD2 (interferon related developmental regulator 2)	1.12	1.16	1.44	0.74	inactive
GPAT3 (glycerol-3-phosphate acyltransferase 3)	0.79	0.78	1.06	0.53	inactive
MOV10L1 (Mov10 like RNA helicase 1)	0.21	0.19	0.4	0.04	inactive
FRG2 (FSHD region gene 2)	0.6	0.79	0.27	0.73	inactive
NHLH2 (nescient helix-loop-helix 2)	0.15	0.24	-0.13	0.34	inactive
LOC392583 (retired record)	-0.07	-0.36	0.02	0.14	inactive
TRIM21 (tripartite motif containing 21)	0.31	0.34	0.21	0.38	inactive

Sorted by “z-score, replicate A” (ascending): some entries from above.
target gene	mean z-score	z-score, replicate A	z-score, replicate B	z-score, replicate C	call
CARNS1 (carnosine synthase 1)	-1.47	-0.73	-1.2	-2.47	inactive
CIMIP5 (ciliary microtubule inner protein 5)	-0.24	-0.11	-0.21	-0.41	inactive
NDST3 (N-deacetylase and N-sulfotransferase 3)	-0.15	-0.06	-0.03	-0.36	inactive
